Laboratory results as given in patent publication US7273614B2 (priority 1993, dated 2007).

How the values were obtained:
HIV-1LAI [1] = conditions: for IC50 (inhibition of RT production): 247 TCID50 HIV-1LAI, CEM cells, 7 days, FIG. 2; for inhibition of HIV-1 cell free virus infection (in words): FIG. 1 legend
Description: Synthetic peptides were incubated at 37° C. with either 247 TCID50 (for experiment depicted in FIG. 2), or 62 TCID50 (for experiment depicted in FIG. 3) units of HIV-1LAI virus or 25 TCID50 units of HIV-2NIHZ and CEM CD4+ cells at peptide concentrations of 0, 0.04, 0.4, 4.0, and 40 μg/ml for 7 days. The resulting reverse transcriptase (RT) activity in counts per minute was determined using the assay described, below, in Section 6.1.5. See, Reed, L. J. et al., 1938, Am. J. Hyg. 27: 493-497 for an explanation of TCID50 calculations.
The micro-reverse transcriptase (RT) assay was adapted from Goff et al. (Goff, S. et al., 1981, J. Virol. 38:239-248) and Willey et al. (Willey, R. et al., 1988, J. Virol. 62:139-147). Supernatants from virus/cell cultures are adjusted to 1% Triton-X100. A 10 μl sample of supernatant was added to 50 μl of RT cocktail in a 96-well U-bottom microtitre plate and the samples incubated at 37° C. for 90 min. The RT cocktail contained 75 mM KCl, 2 mM dithiothreitol, 5 mM MgCl2, 5 μg/ml poly A (Pharmacia, cat. No. 27-4110-01), 0.25 units/ml oligo dT (Pharmacia, cat. No. 27-7858-01), 0.05% NP40, 50 mM Tris-HCl, pH 7.8, 0.5 μM non-radioactive dTTP, and 10 μCi/ml ^32P-dTTP (Amersham, cat. No. PB.10167).
After the incubation period, 40 μl of reaction mixture was applied to a Schleicher and Schuell (S+S) NA45 membrane (or DE81 paper) saturated in 2×SSC buffer (0.3M NaCl and 0.003M sodium citrate) held in a S+S Minifold over one sheet of GB003 (S+S) filter paper, with partial vacuum applied. Each well of the minifold washed four times with 200 μl 2×SSC, under full vacuum. The membrane was removed from the minifold and washed 2 more times in a pyrex dish with an excess of 2×SSC. Finally, the membrane was drained on absorbent paper, placed on Whatman #3 paper, covered with Saran wrap, and exposed to film overnight at −70° C.
DP178 (SEQ ID:1) was next tested for its ability to block CD-4^+ CEM cell infection by cell free HIV-1 virus. […] Each concentration (0, 0.04, 0.4, 4, and 40 μg/ml) of peptide was incubated with 247 TCID50 units of HIV-1LAI virus and CEM cells. After 7 days of culture, cell-free supernatant was tested for the presence of RT activity as a measure of successful infection.

HIV-1LAI [2] = conditions: Wild et al. 1992; cited from earlier work

Row | SMILES | IC50 (inhibition of RT production) (HIV-1LAI [1]) | inhibition of HIV-1 cell free virus infection (in words) (HIV-1LAI [1]) | activity in cell-free HIV-1 infection assay, previously shown (in words) (HIV-1LAI [2])
1 | CC[C@H](C)[C@H](NC(=O)[C@H](C)NC(=O)[C@@H](NC(=O)[C@@H](NC(=O)[C@H](CCCNC(=N)N)NC(=O)[C@H](C)NC(=O)[C@H](CCC(N)=O)NC(=O)[C@H](CC(C)C)NC(=O)[C@H](CC(N)=O)NC(=O)[C@H](CCCCN)NC(=O)[C@@H](NC(=O)CNC(=O)[C@H](Cc1c[nH]c2ccccc12)NC(=O)[C@@H](NC(=O)[C@@H](NC(=O)[C@H](CC(C)C)NC(=O)[C@H](CCCNC(=N)N)NC(=O)[C@H](CC(C)C)NC(=O)[C@H](CCSC)NC(=O)[C@H](CCC(=O)O)NC(=O)[C@H](CCC(N)=O)NC(=O)[C@H](CCC(N)=O)NC(=O)[C@H](CCCNC(=N)N)NC(=O)[C@H](CCCCN)NC(=O)[C@@H](NC(=O)[C@@H](NC(=O)[C@H](CC(=O)O)NC(=O)[C@H](CC(C)C)NC(=O)[C@H](CC(C)C)NC(=O)[C@H](CCC(N)=O)NC(=O)[C@H](CCC(N)=O)NC(C)=O)C(C)C)C(C)C)[C@@H](C)O)C(C)C)[C@@H](C)O)C(C)C)[C@@H](C)O)C(=O)N[C@@H](CCC(=O)O)C(=O)N[C@@H](CCCCN)C(=O)N[C@@H](Cc1ccc(O)cc1)C(=O)N[C@@H](CC(C)C)C(=O)N[C@@H](CCCCN)C(=O)N[C@@H](CC(=O)O)C(=O)N[C@@H](CCC(N)=O)C(N)=O [DP-118] | approximately 5 μg/ml | inhibits HIV-1 cell free virus infection | active
2 | CC[C@H](C)[C@H](NC(=O)CNC(=O)[C@H](Cc1c[nH]c2ccccc12)NC(=O)[C@@H](NC(=O)[C@@H](NC(=O)[C@H](CC(C)C)NC(=O)[C@H](CCC(N)=O)NC(=O)[C@H](CC(C)C)NC(=O)[C@H](CC(C)C)NC(=O)[C@H](Cc1c[nH]cn1)NC(=O)[C@H](CCC(N)=O)NC(=O)[C@H](CCC(N)=O)NC(=O)[C@H](C)NC(=O)[C@H](CCC(=O)O)NC(=O)[C@@H](NC(=O)[C@H](C)NC(=O)[C@H](CCCNC(=N)N)NC(=O)[C@H](CC(C)C)NC(=O)[C@H](CC(C)C)NC(=O)[C@H](CC(N)=O)NC(=O)[C@H](CC(N)=O)NC(=O)CNC(=O)CNC(=O)[C@H](CS)NC(C)=O)[C@@H](C)CC)[C@@H](C)O)C(C)C)C(=O)N[C@@H](CCCCN)C(=O)N[C@@H](CCC(N)=O)C(=O)N[C@@H](CC(C)C)C(=O)N[C@@H](CCC(N)=O)C(=O)N[C@@H](C)C(=O)N[C@@H](CCCNC(=N)N)C(=O)N[C@H](C(=O)N[C@@H](CC(C)C)C(=O)N[C@@H](C)C(=O)N[C@H](C(=O)N[C@@H](CCC(=O)O)C(=O)N[C@@H](CCCNC(=N)N)C(=O)N[C@@H](Cc1ccc(O)cc1)C(=O)N[C@@H](CC(C)C)C(=O)N[C@@H](CCCCN)C(=O)N[C@@H](CC(=O)O)C(=O)N[C@@H](CCC(N)=O)C(N)=O)C(C)C)[C@@H](C)CC [DP-125] | approximately 5 μg/ml | inhibits HIV-1 cell free virus infection | active
